Measured values from several laboratories, pooled; numbers as filed in NIAID ChemDB.

Shared fields: tests in culture; species: Mycobacterium tuberculosis

Rows are shuffled and stem from different studies. ECn is the concentration giving n% inhibition of infection, replication or growth. Percent inhibition refers to the dose given; in toxicity tests it is the harm to the cells. A number after MIC or MFC names an inhibition level or a share of isolates. a–b is a range or a potency band. MIC bound: limit read from a one-dose screen. Blank or dashed fields: not listed here.

compound	strain	cells	method	measure	dose	value
CCOC(=O)c1cc(-c2ccc([N+](=O)[O-])cc2)n(CC(=O)NN)c1C	H37Rv	-	BACTEC	inhibition	6.25 µg/mL	34%
Cc1ccc(-c2ccccc2)n1NC(=O)C1=C(Cl)CC(Cl)C=C1	H37Rv (ATCC 27294)	-	resazurin	inhibition	100 µg/mL	100%
O=C(c1ccc([N+](=O)[O-])cc1[N+](=O)[O-])N(N=CC=Cc1ccccc1)c1nnc(-c2ccccc2)c(-c2ccccc2)n1	H37Rv	-	resazurin	MIC	-	6.25 µg/mL
CN[C@@H]1[C@H](O[C@H]2[C@H](O[C@H]3[C@H](O)[C@@H](O)[C@H](N=C(N)N)[C@@H](O)[C@@H]3N=C(N)N)O[C@@H](C)[C@]2(O)C=O)O[C@@H](CO)[C@H](O)[C@H]1O	2218	-	-	MIC	-	>10 µg/mL
ClCCCN1c2ccccc2Sc2ccccc21	H37Rv	-	agar	inhibition	25 µg/mL	13%
O=c1c2cc(Br)ccc2nc(-c2ccccc2)n1-c1nnc(SCC2CO2)s1	H37Rv	-	-	MIC	-	>40 µg/mL
O=S(=O)(NC1CCN(Cc2ccncc2)CC1)c1ccc(-c2ccccc2)cc1	-	-	-	MIC	-	6.25 µM
CC(C)CCOc1ccc(NC(=S)NC2OC(CO)[C@H](O)[C@@H]2O)cc1	H37Rv	-	resazurin	MIC	-	50 µg/mL
CSc1ccc(-c2nn(-c3ccccc3)cc2C2CC(c3ccc(Br)cc3)=NN2C(C)=O)cc1	H37Rv	-	BACTEC	inhibition	6.25 µg/mL	36%
O=C(O)[C@H]1O[C@@H](n2cc([N+](=O)[O-])c(=O)[nH]c2=O)[C@H](O)[C@@H]1O	H37Rv	-	resazurin	inhibition	6.25 µg/mL	-7%
CCCCCN1C(=O)c2ccnnc2Oc2ccccc21	H37Rv	-	BACTEC	EC50	-	>12.5 µg/mL
CCC1CCC2(CC1)SCC(=O)N2NC(=O)C(O)(c1ccccc1)c1ccccc1	H37Rv	-	-	inhibition	6.25 µg/mL	26%
CC(=O)c1c(C)[nH]c(C(=O)NN)c1C	H37Rv	-	BACTEC	inhibition	6.25 µg/mL	12%
C=C1C(=O)O[C@@H]2CCN3CC=C(COC(=O)[C@@](C)(O)[C@]4(CO4)[C@@H]1C)[C@H]23	H37Rv	-	BACTEC	inhibition	12.5 µg/mL	-24%
C[C@H]1COC2(CCN(c3nc(=O)c4cc(C(F)(F)F)cc([N+](=O)[O-])c4s3)CC2)O1	DprE1 OE	-	-	MIC	-	12.5–50 µM
Clc1ccc2nsnc2c1Cl	H37Rv	-	BACTEC	inhibition	6.25 µg/mL	0%
COc1cc2ccnc3c2c(c1OC(=O)CSc1ccccc1)N(C)C=C3	H37Rv	-	-	MIC	-	>128 µg/mL
Cc1cc2no[n+]([O-])c2cc1C	H37Rv	-	resazurin	MIC bound	-	<6.25 µg/mL
Cc1c[nH]c(C)c1C(=O)N/N=C/c1ccc([N+](=O)[O-])o1	H37Rv	-	BACTEC	EC50	-	>6.25 µg/mL
COc1cc2ccnc3c2c(c1OC(=O)c1ccc(F)c(F)c1)N(C)C=C3	H37Rv	-	-	MIC	-	>128 µg/mL
CCOc1ccc2c(c1)n([O-])c1cc(Cl)ccc1[n+]2=O	H37Rv	-	BACTEC	inhibition	12.5 µg/mL	100%
C=CCSc1nnc(-n2c(-c3ccccc3)nc3ccccc3c2=O)s1	H37Rv	-	-	MIC	-	>20 µg/mL
CSc1ccc(-c2nn(-c3ccccc3)cc2C2CC(c3ccc(C)cc3)=NN2)cc1	H37Rv	-	BACTEC	inhibition	6.25 µg/mL	29%
COC1C(O)C(C)OC(OC2C(Oc3cccc4c(O)c5c(=O)oc6ccc(C)c7c(=O)oc(c34)c5c67)OC(C)C3OC(c4ccccc4)OC32)C1O	H37Rv	-	resazurin	inhibition	6.25 µg/mL	26%
COC(=O)c1cc(C2CCCC2)nc2ccccc12	H37Rv	-	-	inhibition	6.25 µg/mL	2%
CCCCCCCN1C(=O)c2cc(Cl)nnc2Oc2ccc(Cl)cc21	H37Rv	-	BACTEC	inhibition	12.5 µg/mL	38%
CCOC(=O)c1[nH]c(/C=N/NC(=O)c2c(C)c[nH]c2C)c(C(=O)OCC)c1C	H37Rv	-	BACTEC	inhibition	6.25 µg/mL	68%
Cc1ccc2c(c1)N(CCC(C)C)C(=O)c1ccnnc1O2	H37Rv	-	BACTEC	inhibition	12.5 µg/mL	5%
CSc1ccc(-c2nn(-c3ccccc3)cc2C2CC(c3ccccc3O)=NN2C(C)=O)cc1	H37Rv	-	BACTEC	inhibition	6.25 µg/mL	0%
Cc1ccccc1/C=C1/SC(c2ccccc2C)N(C(=O)NCCCN2c3ccccc3Sc3ccccc32)C1=O	H37Rv	-	agar	inhibition	25 µg/mL	20%
CCOC(=O)c1cc(-c2ccc(OC)cc2)n(CC(=O)NN)c1C	H37Rv	-	BACTEC	inhibition	6.25 µg/mL	0%
COc1cc2ccnc3c2c(c1OC(=O)c1ccc(C#N)cc1)N(C)C=C3	H37Rv	-	-	MIC	-	>128 µg/mL
Cc1ccc(-c2ccccc2)n1NC(=O)c1ccncc1	H37Rv	-	turbidity	EC90	-	5.16 µg/mL
CSc1ccc(-c2nn(-c3ccccc3)cc2C2CC(c3ccc(Br)cc3)=NN2)cc1	H37Rv	-	BACTEC	inhibition	6.25 µg/mL	24%
CCCCNc1ccc(C(N)=S)cc1	-	-	-	MIC	-	350 µM
O=C1C(=O)N(c2ccc([N+](=O)[O-])cc2)C(=O)N1c1ccc([N+](=O)[O-])cc1	H37Rv	-	BACTEC	inhibition	12.5 µg/mL	0%
CCOC(=O)c1cc(-c2ccc(C)cc2)n(CCC(=O)NN)c1C	H37Rv	-	BACTEC	EC50	-	>6.25 µg/mL
COc1cc2ccnc3c2c(c1OC(=O)c1ccc(F)cc1)N(C)C=C3	H37Rv	-	-	MIC	-	>128 µg/mL
Cc1ccc(N=Cc2cc(Br)ccc2O)cc1Cl	H37Rv	-	BACTEC	inhibition	12.5 µg/mL	0%
COC(=O)c1cc(C2C3CC4CC(C3)CC2C4)nc2c(C3C4CC5CC(C4)CC3C5)cccc12	H37Rv	-	-	MIC	-	>6.25 µg/mL
O=C(NCCCN1c2ccccc2Sc2ccccc21)N1C(=O)/C(=C\c2ccccc2O)SC1c1ccccc1O	H37Rv	-	agar	inhibition	50 µg/mL	65%
COC1=C(C(C)C)C(=O)C2=C(C1=O)C1(C)CCCC(C)(C)C1=CC2OC(C)=O	-	-	-	MIC	-	0.38 µg/mL
O=C(O)c1ccc2ccccc2n1	H37Rv	-	-	MIC	-	>6.25 µg/mL
O=C1CSC(c2cccc(Cl)c2)N1C(=O)NCCCN1c2ccccc2Sc2ccccc21	H37Rv	-	agar	inhibition	25 µg/mL	30%
c1ccc(COC2(OCc3ccccc3)CC3OC2C2NN=NC32)cc1	H37Rv	-	BACTEC	MIC bound	-	>12.5 µg/mL
Cn1nnc(-c2ccc(-c3ccc(N4C[C@H](CO)OC4=O)cc3F)cn2)n1	61 isolates (isoniazid rifampin-susceptible)	-	-	MIC90	-	0.5 µg/mL
O=C1C=C(Nc2cnccn2)c2ccccc2C1=O	H37Rv	-	resazurin	inhibition	6.25 µg/mL	98%
NC(=O)c1cnccn1	TB186	-	-	MIC	-	3200 µg/mL
O=c1c2cc(I)ccc2nc(-c2ccccc2)n1-c1nnc(SCC2CO2)s1	H37Rv	-	-	MIC	-	>40 µg/mL
CC1SC2(CCCC2)N(NC(=O)C(O)(c2ccccc2)c2ccccc2)C1=O	H37Rv	-	-	inhibition	6.25 µg/mL	0%
CCOC(=O)c1cc(-c2ccc(Cl)cc2)n(CCC(=O)NN)c1C	H37Rv	-	BACTEC	inhibition	6.25 µg/mL	0%
Cc1ccccc1C1SCC(=O)N1C(=O)NCCCN1c2ccccc2Sc2ccccc21	H37Rv	-	agar	inhibition	25 µg/mL	30%
COc1cc2ccnc3c2c(c1OC(=O)c1ccc(CCl)cc1)N(C)C=C3	H37Rv	-	-	MIC	-	>128 µg/mL
NC(=S)c1ccc(Nc2ccccc2)cc1	-	-	-	MIC	-	150 µM
C=CCSc1nnc(-n2c(-c3ccccc3)nc3ccc(Br)cc3c2=O)s1	H37Rv	-	-	MIC	-	>40 µg/mL
CSc1ccc(-c2nn(-c3ccccc3)cc2C2CC(c3ccccc3)=NN2C(C)=O)cc1	H37Rv	-	BACTEC	inhibition	6.25 µg/mL	35%
CC(=O)O[C@H]1CO[C@@H]2OC3[C@H](C(C=O)=C[C@@H](O)[C@H]4C5=C(C(C)C)CC[C@@]5(C)CC[C@]34C)[C@]2(O)C1=O	H37Rv	-	BACTEC	MIC bound	-	>12.5 µg/mL
Oc1cc(CCCc2ccccc2)ccc1Oc1ccc(Cl)cc1Cl	H37Rv	-	-	MIC	-	13 µM
O=c1c2ccccc2nc(-c2ccccc2)n1-c1n[nH]c(=S)s1	H37Rv	-	-	MIC	-	10 µg/mL
CN1C(=O)N(C)C(=O)C(Nc2ccc([N+](=O)[O-])cc2)(SCCO)C1=O	H37Rv	-	BACTEC	inhibition	12.5 µg/mL	0%
CCCCCCN1C(=O)c2cc(Cl)nnc2Oc2cc(C)ccc21	H37Rv	-	BACTEC	EC50	-	<12.5 µg/mL
O=C(NCCCN1c2ccccc2Sc2ccccc21)N1C(=O)/C(=C\c2ccccc2)SC1c1ccccc1	H37Rv	-	agar	inhibition	50 µg/mL	45%
CCCCn1c(C)nc2c(NN=C(N)N)c3ccccc3c(N=NC(=N)N)c21	H37Rv	-	BACTEC	MIC	-	6.25 µg/mL
CC(C)Nc1ccc(C(N)=S)cc1	-	-	-	MIC	-	500 µM
O=C(O)c1cc(C2C3CC4CC(C3)CC2C4)nc2ccccc12	H37Rv	-	-	inhibition	6.25 µg/mL	3%
NC(=S)c1ccc(NCc2ccccc2)cc1	-	-	-	MIC	-	175 µM
CN(C)c1ccc2[nH]cc(C(=O)O)c(=O)c2c1	H37Rv	-	BACTEC	MIC bound	-	>12.5 µg/mL
C=CCSc1nnc(-n2c(-c3ccccc3)nc3ccc(I)cc3c2=O)s1	H37Rv	-	-	MIC	-	>40 µg/mL
COCCNC1CCN(CC2C(c3ccccc3)=Nc3c(C)cccc32)C1	-	-	-	MIC	-	3.12 µM
CSc1ccc(-c2nn(-c3ccccc3)cc2C2CC(c3ccc([N+](=O)[O-])cc3)=NN2C(C)=O)cc1	H37Rv	-	BACTEC	inhibition	6.25 µg/mL	35%
O=C(Nn1c(-c2ccccc2)ccc1-c1ccccc1)c1ccncc1	H37Rv (ATCC 27294)	-	resazurin	inhibition	100 µg/mL	100%
CCOC(=S)SSC(=S)NCCNC(=S)SSC(=S)OCC	H37Rv	-	BACTEC	inhibition	12.5 µg/mL	100%
Cc1ccc(-c2ccccc2)n1NC(=O)C(C)c1ccc(CC(C)C)cc1	H37Rv (ATCC 27294)	-	resazurin	inhibition	100 µg/mL	90%
CC(C)CCOc1ccc(NC(=S)NC2OC(CO)[C@@H](O)[C@@H]2O)cc1	H37Rv	-	resazurin	MIC	-	1.56–3.125 µg/mL
Oc1cc(CCc2ccccc2)ccc1Oc1ccc(Cl)cc1Cl	Clinical isolate 5071	-	-	MIC	-	52 µM
O=C(/N=C/c1ccccc1O)NCCCN1c2ccccc2Sc2ccccc21	H37Rv	-	agar	inhibition	50 µg/mL	55%
CC1CCCC2(C1)SC(C)C(=O)N2NC(=O)C(O)(c1ccccc1)c1ccccc1	H37Rv	-	-	inhibition	6.25 µg/mL	1%
NC1=C(C(=O)OCc2ccccc2)N=CC(CCl)[N+]1=O	H37Rv	-	BACTEC	inhibition	12.5 µg/mL	9%
Cc1cccc2c(CN3CCCC3)c(-c3ccccc3)[nH]c12	-	-	-	MIC	-	12.5 µM
COc1cc2ccnc3c2c(c1OC(=O)c1ccccc1C)N(C)C=C3	H37Rv	-	-	MIC	-	>128 µg/mL
O=C(Nc1ccc(CCC2=NCCCN2)cc1)c1ccc(C(=O)Nc2ccc(CCC3=NCCCN3)cc2)cc1	H37Rv	-	BACTEC	inhibition	12.5 µg/mL	100%
O=C(O)c1cnc2ccccc2c1C1C2CC3CC(C2)CC1C3	H37Rv	-	-	MIC	-	>6.25 µg/mL
Cn1c(=O)c2c(c3cc(O)ccc31)OC(C(C)(C)O)C2	H37Rv	-	BACTEC	MIC bound	-	>12.5 µg/mL
CC1CCC2(CC1)SC(C)C(=O)N2NC(=O)C(O)(c1ccccc1)c1ccccc1	H37Rv	-	-	inhibition	6.25 µg/mL	36%
Nc1ccc2nc3cc(Nc4ccccc4)c(=Nc4ccccc4)cc-3n(-c3ccccc3)c2c1	H37Rv	VERO	-	MIC	-	0.4 µg/mL
Cc1cccc(C2SCC(=O)N2C(=O)NCCCN2c3ccccc3Sc3ccccc32)c1	H37Rv	-	agar	inhibition	50 µg/mL	42%

For reference, 11 entries again:

O=C(c1ccc([N+](=O)[O-])cc1[N+](=O)[O-])N(N=CC=Cc1ccccc1)c1nnc(-c2ccccc2)c(-c2ccccc2)n1 ; strain: H37Rv ; method: resazurin ; measure: MIC ; value: 6.25 µg/mL
COc1cc2ccnc3c2c(c1OC(=O)c1ccc(F)cc1)N(C)C=C3 ; strain: H37Rv ; measure: MIC ; value: >128 µg/mL
O=c1c2cc(Br)ccc2nc(-c2ccccc2)n1-c1nnc(SCC2CO2)s1 ; strain: H37Rv ; measure: MIC ; value: >40 µg/mL
O=S(=O)(NC1CCN(Cc2ccncc2)CC1)c1ccc(-c2ccccc2)cc1 ; measure: MIC ; value: 6.25 µM
CCC1CCC2(CC1)SCC(=O)N2NC(=O)C(O)(c1ccccc1)c1ccccc1 ; strain: H37Rv ; measure: inhibition ; dose: 6.25 µg/mL ; value: 26%
O=C(NCCCN1c2ccccc2Sc2ccccc21)N1C(=O)/C(=C\c2ccccc2O)SC1c1ccccc1O ; strain: H37Rv ; method: agar ; measure: inhibition ; dose: 50 µg/mL ; value: 65%
Oc1cc(CCCc2ccccc2)ccc1Oc1ccc(Cl)cc1Cl ; strain: H37Rv ; measure: MIC ; value: 13 µM
COc1cc2ccnc3c2c(c1OC(=O)c1ccc(F)c(F)c1)N(C)C=C3 ; strain: H37Rv ; measure: MIC ; value: >128 µg/mL
CC(C)CCOc1ccc(NC(=S)NC2OC(CO)[C@H](O)[C@@H]2O)cc1 ; strain: H37Rv ; method: resazurin ; measure: MIC ; value: 50 µg/mL
COC1=C(C(C)C)C(=O)C2=C(C1=O)C1(C)CCCC(C)(C)C1=CC2OC(C)=O ; measure: MIC ; value: 0.38 µg/mL
CSc1ccc(-c2nn(-c3ccccc3)cc2C2CC(c3ccc(Br)cc3)=NN2)cc1 ; strain: H37Rv ; method: BACTEC ; measure: inhibition ; dose: 6.25 µg/mL ; value: 24%